Test results as given in paper PMC4031664 (Prion, 2013).

Protein sequences, listed by entry. Tags and fused reporters are not part of them.
UniProt P04925, whole entry, looked up, tested part not stated: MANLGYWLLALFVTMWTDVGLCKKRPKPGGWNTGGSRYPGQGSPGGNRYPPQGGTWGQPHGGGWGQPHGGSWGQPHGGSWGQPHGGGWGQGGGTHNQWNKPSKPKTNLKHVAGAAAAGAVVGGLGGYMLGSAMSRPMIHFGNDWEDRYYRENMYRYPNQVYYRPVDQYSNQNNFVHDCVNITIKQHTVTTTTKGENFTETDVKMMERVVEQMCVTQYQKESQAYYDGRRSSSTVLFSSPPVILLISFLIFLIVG

Biological target: globular domain of mouse prion protein (Mus musculus, UniProt P04925)
Test: crystal structure

B1: Fab fragment of the anti-prion monoclonal antibody POM1 (Fab, V domains shown)
VH: QVQLQQSGTELVMPGASVKMSCKASGYTFTDYWMHWVKQRPGQGLEWIGSIDPSDSYTSHNEKFKGKATLTVDESSSTAYMQLSSLTSEDSAVYFCSRSGYGYYAMEYWGQGTSVTVSS
VL: DIVLTQSPAILSVSPGERVSFSCRASQNIGTSIHWYQQRTNESPRLIIKYASESISGIPSRFSGSGSGTDFTLSINSVESEDIADYYCQQSNTWPYTFGGGTKLELK
- binding result: binds
